Results of unrelated studies side by side (data: NIAID ChemDB).

All rows: growth or infection tests; organism: Hepatitis B virus

ECn is the concentration giving n% inhibition of infection, replication or growth. An empty or dashed field is not shown. Rows are shuffled and stem from different studies. a–b is a range or a potency band.

smiles,endpoint,strain or isolate,read by,cells,conditions,mutations,result
COC(=O)C1=C(CN2CC(F)(F)[C@H]3[C@@H]2CCN3CC[C@@](C)(O)C(=O)O)NC(c2nccs2)=N[C@H]1c1ccc(F)c(F)c1C,EC50,,PCR,HepG2.2.15,,,0.046 µM
CCc1ccc(-n2c(C(=O)NCc3ccccc3)c3n(c2=O)CCN(C(=O)c2ccc(Br)c(Cl)c2)C3)nc1,EC50,,PCR,HepG2.117,,,0.5–5 µM
COC(=O)C1=C(CN2CC(F)(F)[C@@H]3[C@H]2CON3C[C@@H](F)C(C)(C)C(=O)O)NC(c2nccs2)=N[C@H]1c1ccc(F)c(F)c1Cl,EC50,,PCR,HepG2.2.15,,,0.005 µM
Cc1cc(Nc2ncnc3ccc(-c4cccs4)cc23)ccc1N1CCOCC1,EC50,,replicon,HUH 9B,,,<1 µM
Cc1cc(NC(=O)c2c3c(cn2C)S(=O)(=O)NC2CN(C(=O)C(=O)NC(C)(C)C(F)(F)F)CCC2CO3)ccc1F,EC50,,PCR,HepAD38,,,<0.5 µM
Cn1nc2ccc(NC(=O)OCc3ccc(-c4ccccc4)cc3)cc2c1C(=O)Nc1ccc(F)c(Cl)c1,EC50,,PCR,HepAD38,,,>1000 µM
COC(=O)C1=C(CN2CC(F)(F)[C@@H]3[C@H]2CON3C[C@H](OC)C(C)(C)C(=O)O)NC(c2nc(C)cs2)=N[C@H]1c1ccc(F)c(F)c1C,EC50,,PCR,HepG2.2.15,,,0.025 µM
CN(C)C(=O)c1ccc2ncnc(Nc3ccc(N4CCOCC4)cc3)c2c1,EC50,,replicon,HUH 9B,,,1–5 µM
Cn1cc(C(=O)C(=O)Nc2ccc3c(C(=O)Nc4ccc(F)c(Cl)c4)n(C)nc3c2)cn1,EC50,,PCR,HepAD38,,,100–1000 µM
COC(=O)C1=C(CN2CC(F)(F)[C@H]3[C@@H]2CCN3CC[C@](C)(O)C(=O)O)NC(c2nccs2)=N[C@H]1c1ccc(F)c(F)c1F,EC50,,PCR,HepG2.2.15,,,0.085 µM
CC1=CC2c3c(cc4oc(-c5cc(O)cc(O)c5)cc4c3C)O[C@@]3(c4ccc(O)cc4O)Oc4cc(O)ccc4[C@H](C1)C23,EC50,,PCR,HepG2.2.15,,,9.1 µM
C[C@@H]1Cn2c(c3n(c2=O)C[C@@H](F)CN(Cc2ccccc2)C3=O)CN1C(=O)c1ccc(Br)c(Cl)c1,EC50,,PCR,HepG2.117,,,0.1–0.5 µM
CNS(=O)(=O)N1CCC(C)C(NS(=O)(=O)c2cn(C)c(C(=O)Nc3ccc(F)c(F)c3)c2F)C1,EC50,,PCR,HepAD38 cells,,,<0.1 µM
C[C@@H](NC(=O)C(=O)N1CC[C@@]2(COc3c(c(Cl)n(C)c3C(=O)Nc3ccc(F)c(C(F)F)c3)S(=O)(=O)N2)C1)C(F)(F)F,EC50,Genotype D,PCR,HepAD38,,,<0.5 µM
Cc1nc(-c2ccc(-n3c(=O)c4c(n5ncc(Cc6ccccc6)c35)CN(C(=O)c3ccc(Cl)c(C(F)(F)F)c3)[C@@H](C)C4)cc2)n[nH]1,EC50,,luminescence,HepG2.117,,,0.05–0.5 µM
COC(=O)CNS(=O)(=O)c1ccc2c(C(=O)Nc3ccc(F)c(Cl)c3)n(C)nc2c1,EC50,,PCR,HepAD38,,,>1000 µM
CNc1n[nH]c2cc(-n3c(=O)c4c(n5ncc(CC6CC6)c35)CN(C(=O)c3ccc(Br)c(Cl)c3)CC4)ccc12,EC50,,luminescence,HepG2.117,,,≤0.05 µM
CCOC(=O)C1=C(CN2CC(F)(F)[C@@H]3[C@H]2CON3CCC(C)(F)C(=O)O)NC(c2nccs2)=N[C@H]1c1cccc(F)c1C,EC50,,PCR,HepG2.2.15,,,0.26 µM
Cn1cc(S(=O)(=O)Nc2cnc3c(C(=O)Nc4ccc(F)c(Cl)c4)n(C)nc3c2)cn1,EC50,,PCR,HepAD38,,,>1000 µM
C[C@@H](NC(=O)C(=O)N1CC[C@]2(COc3c(cn(C)c3C(=O)Nc3ccc(F)c(Cl)c3)S(=O)(=O)N2)C1)C(F)(F)F,EC50,Genotype D,PCR,HepAD38,,,<0.5 µM
CNC(=O)c1ccc(-n2c(=O)c3c(n4ncc(CC(C)C)c24)CN(C(=O)c2ccc(Br)c(C(F)(F)F)c2)[C@H](C)C3)cc1,EC50,,luminescence,HepG2.117,,,≤0.05 µM
Cn1cc2c(c1C(=O)Nc1ccc(F)c(C(F)F)c1)OCC1(CCN(C(=O)C(=O)NC(C)(C)C(F)(F)F)CC1)NS2(=O)=O,EC50,Genotype D,PCR,HepAD38,,,<0.5 µM
CC(C)Oc1ccc(-n2c(C(=O)N[C@@H](C)c3ccccc3)c3n(c2=O)CCN(C(=O)c2ccc(Cl)c(Cl)c2)C3)cc1,EC50,,PCR,HepG2.117,,,0.5–5 µM
Cn1nc2cc(NS(=O)(=O)c3cccs3)ccc2c1C(=O)Nc1ccc(F)c(Cl)c1,EC50,,PCR / entry,HepAD38,,,100–1000 µM
Cc1cc(NC(=O)c2c3c(cn2C)S(=O)(=O)N[C@H]2CN(C(=O)C(=O)N[C@H](C)C(F)(F)F)C[C@H]2CO3)ccc1F,EC50,,PCR,HepG2,,T33N,0.04688 µM
COCC1(N(C)C(=O)c2c3n(c(=O)n2-c2ccc(OC)cc2)CCN(C(=O)c2ccc(Cl)c(Cl)c2)C3)CC1,EC50,,PCR,HepG2.117,,,>5 µM
CN(C)C(=O)C(=O)N1CC2COc3c(cn(C)c3C(=O)Nc3cc(F)c(F)c(F)c3)S(=O)(=O)NC2C1,EC50,,PCR,HepG2,,,<0.5 µM
CNC(=O)c1ccc(-n2c(=O)c3c(n4ncc(Nc5ccc(F)cc5)c24)CN(C(=O)c2ccc(Br)c(Cl)c2)CC3)cc1,EC50,,PCR,HepG2.117,3 d,,<0.1 µM
C[C@H]1Cc2c(n3ncc(CC4CC4)c3n(-c3ccc(C(=O)N(C)CO)cc3)c2=O)CN1C(=O)c1ccc(Br)c(C(F)(F)F)c1,EC50,,luminescence,HepG2.117,,,>5 µM
O=C(N/C(C(=O)N1CCCCC1)=C(/Cl)c1ccccc1)c1ccccc1,EC90,,,HepG2,,,10.8 µM
Cn1cc2c(c1C(=O)Nc1ccc(F)c(C(F)F)c1)OC[C@]1(CCN(C(=O)C(=O)NC(C)(C)C(F)(F)F)C1)NS2(=O)=O,EC50,Genotype D,PCR,HepAD38,,,<0.5 µM
c1cc(-c2ccc3ncnc(Nc4ccc(N5CCOCC5)cc4)c3c2)cc(-n2cccn2)c1,EC50,,replicon,HUH 9B,,,<1 µM
O=C(c1ccc(Br)c(Cl)c1)N1CCc2c(n3ncc(Cc4ccccc4)c3n(-c3ccccc3)c2=O)C1,EC50,,PCR,HepG2.117,3 d,,0.1–0.5 µM
CCNC(=O)C(=O)N[C@@H]1CCCN(S(=O)(=O)c2cn(C)c(C(=O)Nc3cc(F)c(F)c(F)c3)c2F)C1,EC50,,PCR,HepAD38 cells,,,<0.1 µM
ClCCc1c(Cl)nc2ccc(Cl)cc2c1-c1ccccc1Cl,EC50,,ELISA / antigen,HepG2.2.15,,,1400 µM
Cc1c(C(=O)C(=O)NC(C)(C)c2ccc[nH]c2=O)c(C)n(C)c1C(=O)Nc1ccc(F)c(C#N)c1,EC50,,PCR,HepG2.2.15,,,0.001–0.0099 µM
O=C(NCc1ccccc1-n1cc(F)cn1)c1c2n(c(=O)n1-c1ccc(OC3CC3)cc1)CCN(C(=O)c1ccc(Br)c(Cl)c1)C2,EC50,,PCR,HepG2.117,,,<0.1 µM
Cc1cc(NC(=O)c2c3c(cn2C)S(=O)(=O)NC2(C)CN(C(=O)C(=O)N[C@H](C)C(F)(F)F)CC2CO3)ccc1F,EC50,,PCR,HepAD38,,,<0.5 µM
CNC(=O)c1ccc(-n2c(=O)c3c(n4ncc(Cc5ccsc5)c24)CN(C(=O)c2ccc(Br)c(Cl)c2)CC3)cc1,EC50,,luminescence,HepG2.117,,,≤0.05 µM
CC(C)(C)OC(=O)Nc1cccc(-c2ccc3ncnc(Nc4ccc(N5CCOCC5)cc4)c3c2)c1,EC50,,replicon,HUH 9B,,,1–5 µM
COc1ccc(-n2c(C(=O)NCc3ccc(OCC(N)=O)cc3)c3n(c2=O)CCN(C(=O)c2ccc(Br)c(Cl)c2)C3)cc1,EC50,,PCR,HepG2.117,,,0.5–5 µM
C#C[C@H](CO)NC(=O)C(=O)c1c(C)c(C(=O)Nc2ccc(F)c(C#N)c2)n(C)c1C,EC50,,PCR,HepG2.2.15,,,0.001–0.0099 µM
C[C@H]1CN(Cc2ccccc2)C(=O)c2c3n(c(=O)n2C1)CCN(C(=O)c1ccc(Br)c(Cl)c1)C3,EC50,,PCR,HepG2.117,,,0.5–5 µM
Cc1cnn(-c2ccc(-n3c(=O)c4c(n5ncc(Cc6ccccc6)c35)CN(C(=O)c3ccc(Br)c(C(F)(F)F)c3)[C@H](C)C4)cc2)n1,EC50,,luminescence,HepG2.117,,,≤0.05 µM
Cn1cc2c(c1C(=O)Nc1ccc(F)c(Cl)c1)OCC1(CCN(C(=O)C(=O)NCC(F)(F)F)CC1)NS2(=O)=O,EC50,Genotype D,PCR,HepAD38,,,<0.5 µM
Cc1cc(NC(=O)c2c3c(cn2C)S(=O)(=O)N[C@H]2CN(C(=O)C(=O)NC4(C(F)(F)F)CC4)C[C@H]2CO3)ccc1F,EC50,,PCR,HepAD38,,,<0.5 µM
Cn1nc2cc(NS(=O)(=O)c3cnn(-c4ncccc4F)c3)ccc2c1C(=O)Nc1ccc(F)c(Cl)c1,EC50,,PCR,HepAD38,,,<100 µM
Cn1cc(S(=O)(=O)N[C@@H]2CCN(S(=O)(=O)c3ccc(F)cc3)C2)c(F)c1C(=O)Nc1ccc(F)c(F)c1,EC50,,PCR,HepAD38 cells,,,<0.1 µM
COC(=O)C1=C(CN2CC(F)(F)[C@H]3[C@@H]2CCN3CC[C@@](C)(O)C(=O)O)NC(c2nccs2)=N[C@H]1c1ccc(F)c(F)c1F,EC50,,PCR,HepG2.2.15,,,0.189 µM
Cn1cc(NC(=O)CS(=O)(=O)Nc2ccc3c(C(=O)Nc4ccc(F)c(Cl)c4)n(C)nc3c2)cn1,EC50,,PCR,HepAD38,,,>1000 µM
CCNC(=O)C(=O)N1CCC(NS(=O)(=O)c2cn(CC)c(C(=O)Nc3cc(F)c(F)c(F)c3)c2F)C(F)(F)C1,EC50,,PCR,HepAD38 cells,,,<0.1 µM
c1csc(-c2ccc3ncnc(Nc4ccc(N5CCOCC5)cc4)c3c2)c1,EC50,,replicon,HUH 9B,,,<1 µM
CNC(=O)c1ccc(-n2c(=O)c3c(n4ncc(Cc5ccc(C#N)cc5F)c24)CN(C(=O)c2ccc(Br)c(Cl)c2)CC3)cc1,EC50,,PCR,HepG2.117,3 d,,<0.1 µM
CN1CCN(Cc2ccc(-c3ccc4ncnc(Nc5ccc(N6CCOCC6)cc5)c4c3)o2)CC1,EC50,,replicon,HUH 9B,,,1–5 µM
CN1[C@H](C(=O)Nc2ccc(F)c(Cl)c2)C[C@H](c2ncc(-c3cn(C)cn3)s2)NS1(=O)=O,EC50,Genotype D,fluorescence,HepG2-NTCP,,,0.027 µM
COc1ccc(-n2c(C(=O)NCc3ccccc3F)c3n(c2=O)CCN(C(=O)c2ccc(Br)c(Cl)c2)C3)cc1,EC50,,PCR,HepG2.117,,,0.1–0.5 µM
Cc1c(C(=O)C(=O)NC(C)(C)c2cn(C)cn2)c(C)n(C)c1C(=O)Nc1ccc(F)c(C(F)(F)F)c1,EC50,,PCR,HepG2.2.15,,,0.1–0.999 µM
Cc1cc(NC(=O)c2c3c(cn2C)S(=O)(=O)NC2CN(C(=O)C(=O)NC4(C)COC4)CC2CO3)ccc1F,EC50,,PCR,HepG2,,,<0.5 µM
CCOC(=O)C1=C(CN2CC(F)(F)[C@@H]3[C@H]2CON3C[C@@H](F)C(C)(C)C(=O)O)NC(c2nccs2)=N[C@H]1c1ccc(F)c(F)c1F,EC50,,PCR,HepG2.2.15,,,0.012 µM
Cc1c(C(=O)C(=O)NC2(c3ncc[nH]3)COC2)c(C)n(C)c1C(=O)Nc1ccc(F)c(C(F)(F)F)c1,EC50,,PCR,HepG2.2.15,,,0.001–0.0099 µM
CNC(=O)c1ccc(-n2c(=O)c3c(n4ncc(CC5CCOC5)c24)CN(C(=O)c2ccc(Br)c(Cl)c2)CC3)cc1,EC50,,luminescence,HepG2.117,,,≤0.05 µM
C#CC1(NC(=O)C(=O)c2c(C)c(C(=O)Nc3ccc(F)c(C#N)c3)n(C)c2C)COC1,EC50,,PCR,HepG2.2.15,,,<0.001 µM
CCOC(=O)C1=C(CN2CC(F)(F)[C@@H]3[C@H]2CON3C[C@H](OCC)C(C)(C)C(=O)O)NC(c2nccs2)=N[C@H]1c1cccc(F)c1C,EC50,,PCR,HepG2.2.15,,,0.012 µM
O=C(c1ccc(Br)c(F)c1)N1CCc2c(n3nccc3n(-c3ccccc3)c2=O)C1,EC50,,PCR,HepG2.117,3 d,,>5 µM
Cc1cc(NC(=O)c2c3c(cn2C)S(=O)(=O)N[C@H]2CN(C(=O)C(=O)NC4CC4)C[C@H]2CO3)ccc1F,EC50,,PCR,HepAD38,,,<0.5 µM
Cc1c(C(=O)C(=O)NC(C)(C)c2ncc[nH]2)c(C)n(C)c1C(=O)Nc1ccc(F)c(C#N)c1,EC50,,PCR,HepG2.2.15,,,0.001–0.0099 µM
Cn1nc2cc(NS(=O)(=O)C3CC3)cc(F)c2c1C(=O)Nc1ccc(F)c(Cl)c1,EC50,,PCR,HepAD38,,,>1000 µM
CC(C)Cc1cnn2c3c(c(=O)n(-c4ccc(-c5n[nH]c(=O)n5C)cc4)c12)C[C@H](C)N(C(=O)c1ccc(Br)c(C(F)(F)F)c1)C3,EC50,,luminescence,HepG2.117,,,0.05–0.5 µM
COc1cc2ncnc(Nc3ccc(N4CCOCC4)cc3)c2cc1OC,EC50,,replicon,HUH 9B,,,5–25 µM